Replication capacity of HIV-1 mutants, Nef

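Seven fragments of pNL4-3 were mutated by error-prone PCR, and each virus pool was passaged in CEM T cells. The RC index is the frequency of a change after passage round 2 divided by its frequency in the plasmid library.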

Protein: Nef of HIV-1 NL4-3, numbered from its first residue.
From base 9076 on, changes also alter the 3' U3.
Effects on overlapping genes or RNA elements are not listed.

A higher RC index is a better tolerated change; approximate classes are lethal up to 0.1, attenuated to 0.2, tolerated above.
A change reads original residue, position, new residue.
Input reads are the counts in the plasmid library.
Base changes are numbered along pNL4-3.
Clones carried about five changes per kilobase, which can drag down the index of neutral changes.
The authors read an index above 1 as above wild type (1.9% of all changes in the genome).

W5R (base T8799C, input reads 409) read 0.0643.
W141L (base G9208T, input reads 301) read 0.476.
P122R (base C9151G, input reads 89) read 0.778.
F139L (base T9203A, input reads 386) read 0.699.
W124S (base G9157C, input reads 71) read 0.488.
G67A (base G8986C, input reads 83) read 0.255.
W124G (base T9156G, input reads 75) read 0.538.
E160D (base G9266C, input reads 46) read 0.170.
A56T (base G8952A, input reads 284) read 0.835.
E63G (base A8974G, input reads 256) read 0.501.
N161S (base A9268G, input reads 245) read 0.723.
C206S (base G9403C, input reads 95) read 0.231.
E197D (base G9377C, input reads 147) read 0.747.
E179V (base A9322T, input reads 265) read 0.226.
P72A (base C9000G, input reads 54) read 0.392.
K39N (base A8903T, input reads 179) read 0.946.
E64K (base G8976A, input reads 120) read 2.82.
Y120F (base A9145T, input reads 160) read 0.553.
E155V (base A9250T, input reads 156) read 0.459.
Q104R (base A9097G, input reads 399) read 1.21.
K82E (base A9030G, input reads 315) read 0.555.
P129L (base C9172T, input reads 314) read 0.717.
L110V (base C9114G, input reads 40) read 0.240.
L58P (base T8959C, input reads 182) read 0.806.
H192R (base A9361G, input reads 445) read 0.934.
S46T (base G8923C, input reads 91) read 0.682.
C142F (base G9211T, input reads 94) read 0.166.
A49E (base C8932A, input reads 122) read 0.590.
L91I (base T9057A, input reads 281) read 0.445.
S169R (base C9293G, input reads 61) read 0.470.
Y115H (base T9129C, input reads 349) read 1.28.
F139Y (base T9202A, input reads 307) read 0.641.
D108V (base A9109T, input reads 237) read 0.600.
T117S (base A9135T, input reads 440) read 0.935.
I101F (base A9087T, input reads 317) read 1.16.
S8R (base T8810A, input reads 387) read 0.583.
N157H (base A9255C, input reads 379) read 0.884.
R134G (base A9186G, input reads 575) read 0.963.
H89L (base A9052T, input reads 214) read 0.746.
L170P (base T9295C, input reads 343) read 0.768.
E160Q (base G9264C, input reads 35) read 0.335.
S169C (base A9291T, input reads 363) read 0.754.
S9N (base G8812A, input reads 314) read 0.282.
P69T (base C8991A, input reads 131) read 0.463.
I109V (base A9111G, input reads 179) read 0.688.
E18V (base A8839T, input reads 204) read 0.115.
L189P (base T9352C, input reads 343) read 0.606.
V180L (base G9324C, input reads 140) read 0.652.
F90I (base T9054A, input reads 302) read 0.548.
P150T (base C9234A, input reads 105) read 0.956.
P200T (base C9384A, input reads 192) read 0.589.
K92I (base A9061T, input reads 240) read 0.200.
W141R (base T9207A, input reads 377) read 0.605.
K152R (base A9241G, input reads 239) read 0.916.
Y143S (base A9214C, input reads 68) read 0.517.
D111G (base A9118G, input reads 298) read 0.897.
P14A (base C8826G, input reads 48) read 0.0978.
S103Y (base C9094A, input reads 149) read 0.361.
L112Q (base T9121A, input reads 395) read 0.258.

3 of these entries, quoted again:

substitution,base,input reads,replication capacity index
Y120F,A9145T,160,0.553
W124G,T9156G,75,0.538
I109V,A9111G,179,0.688

From the data files of Al-Mawsawi et al. 2014, doi:10.1186/s12977-014-0124-6.